# Primary screen of a compound library

Measurements from “University of Dundee, Small-Polar-MMV Screening Library” (2021), ChEMBL document CHEMBL3988442.

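Whole-cell growth test on Mycobacterium tuberculosis, read after 4 days in a medium based on cholesterol and the lipid DPPC; the read-out is not stated. Compounds at 500 µM. Direction is inferred from retests: higher values go with more growth inhibition. Of about 18,000 compounds tested this way, about 900 (5%) reached 50% or more in at least one test.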

The filed quantity is “Percent Effect” (%).
The record does not define 0% and 100%; most values in the screen are far below 50% and negative numbers occur (in some assays of this library far below -100).
This is part of a subset picked to be rich in strong results.

| # | Compound | percent effect |
|---|---|---|
| 1 | `Cc1cc(C(=O)N2CCC[C@@H](N)C2)on1` | -6.489 |
| 2 | `COC(=O)c1cccc(OCC(O)C(F)(F)F)c1` (stereo not drawn) | 55.85 |
| 3 | `CN(CC(=O)NC(C)(C)C)C(=O)c1cncc(Br)c1` | -15.46 |
| 4 | `Cc1ccc(SCC(=O)NC(N)=O)nc1` | -19.7 |
| 5 | `CC(=O)NCCNC(=O)N1CCc2sccc2C1` | -9.367 |
| 6 | `Cc1cc(N2CCNCC2)n[nH]1` | -16.43 |
| 7 | `O=C(CCC(=O)c1ccccc1)NCc1cccnc1` | -31.9 |
| 8 | `Cc1ccc(C(=O)NCCN2CCOCC2)c(C)c1` | -2.337 |
| 9 | `O=S(=O)(NC1CCCC1)c1cncc(Cl)c1` | 42.29 |
| 10 | `NCCS(=O)(=O)N1CCCc2ccccc21` | 18.38 |
| 11 | `CN(Cc1ccc(S(C)(=O)=O)cc1)CC1COCCO1` (stereo not drawn) | 0.8498 |
| 12 | `CCCn1cc(CNc2nc(C3CC3)no2)cn1` | 80.48 |
| 13 | `Cc1ccsc1C(=O)N(C)CC(=O)NC1CC1` | 3.04 |
| 14 | `CNCCOc1cccc(C)c1` | 15.74 |
| 15 | `COCCn1cnnc1CN(C)Cc1nc(C)no1` | -1.733 |
| 16 | `CC(C)(C)OC(=O)N[C@@H]1CCCNC1=O` | -13.56 |
| 17 | `O=C(CCOc1cccc(F)c1)NCC1CCCO1` (stereo not drawn) | 28.97 |
| 18 | `NCC(=O)Nc1ccccc1` | 1.992 |
| 19 | `CCCN1CCN(C2CCNCC2)CC1` | -4.052 |
| 20 | `Cc1nn(C)c2c1NC(=O)CO2` | -21.4 |
| 21 | `NCc1cn2cc(Cl)ccc2n1` | -3.086 |
| 22 | `FC(F)OC1CCCNC1` (stereo not drawn) | -11.83 |
| 23 | `O=C(CCN1CCCC(O)C1)N1CCc2ccccc21` (stereo not drawn) | -3.059 |
| 24 | `Cc1csc(-n2cccc2)n1` | 10.53 |
| 25 | `CN1CCC(N(C)C(=O)Nc2ccc(C#N)cc2)CC1` | -13.19 |
| 26 | `CCNC(=O)c1cc2ccccc2n1C` | 24.56 |
| 27 | `Nc1ccc(CN2CCOCC2)cn1` | -18.17 |
| 28 | `O=C(c1cnsn1)N1CCN(Cc2ccc(Cl)s2)CC1` | -18.23 |
| 29 | `COCC(=O)Nc1ccc(-n2cccn2)nc1` | 3.82 |
| 30 | `COc1ccc(Nc2ncccc2S(N)(=O)=O)cc1` | 55.66 |
| 31 | `COC1(C)CN(C(=O)Nc2ccc(F)cc2)C1` | 33.17 |
| 32 | `CNCc1csc(C(C)C)n1` | -13.8 |
| 33 | `CCOc1nnc(CN2CCC(C(N)=O)CC2)s1` | 23.64 |
| 34 | `CCc1cnc(CN(C(C)=O)C2CCNC2)o1` (stereo not drawn) | 2.652 |
| 35 | `Cc1nc(CN(C)C(=O)NCc2ccccc2)no1` | 21.17 |
| 36 | `CCC(CC)C(=O)Nc1ccon1` | 11.9 |
| 37 | `CC(C)n1cnc(S(=O)(=O)NCC2CCCCN2)c1` (stereo not drawn) | 2.317 |
| 38 | `NCCNS(=O)(=O)c1ccc(-c2ccccc2)cc1` | 78.57 |
| 39 | `Nc1n[nH]c(SCc2ccc3c(c2)OCCO3)n1` | 53.96 |
| 40 | `CN(C)c1ccc(C(=O)Nc2ccncc2)cc1` | -0.3988 |
| 41 | `Cc1cccc(-n2cc(CN)cn2)c1` | 40.27 |
| 42 | `Cn1cc(NC(=O)NCCc2nccs2)cn1` | 6.164 |
| 43 | `NC(=O)NC(=O)CCn1cc(-c2ccccc2)cn1` | -8.468 |
| 44 | `COc1cc(OC)cc(N2CCC(N)C2)c1` (stereo not drawn) | 51.42 |
| 45 | `COc1c(Cl)cc(NC(=O)C2COCCN2)cc1Cl` (stereo not drawn) | 51.41 |
| 46 | `O=C1OCCC12CCNC2` (stereo not drawn) | -4.936 |
| 47 | `C[C@@H](N)c1ccc(Cl)cn1` | 2.431 |
| 48 | `COc1c(F)cccc1CN1C[C@H](O)[C@@H](N(C)C)C1` | 7.716 |
| 49 | `O[C@@H]1CNC[C@H](O)C1` | 91.26 |
| 50 | `COCCN1CCCC(NC2CCOCC2)C1` (stereo not drawn) | -4.46 |
| 51 | `COCC(=O)N1CCCN(CCn2cc(Cl)cn2)CC1` | -4.726 |
| 52 | `CCOc1ccc(C(=O)N2CCN(C)CC2)cc1C` | 24.72 |
| 53 | `COc1ncccc1C(=O)N(CC(F)F)C1CC1` | -6.9 |
| 54 | `NCc1ccnc(OCC(F)(F)F)c1` | 64.73 |
| 55 | `CCNC1CCS(=O)(=O)C1` (stereo not drawn) | -8.443 |
| 56 | `COc1ccc(C2=NN=C(NC3CC3)SC2)cc1OC` | 6.802 |
| 57 | `CC(C)CC(=O)Nc1ccc2[nH]c(=O)c(=O)[nH]c2c1` | 1.674 |
| 58 | `CCOC(=O)N1CCN(C(=O)c2onc(C)c2Cl)CC1` | 36.56 |

The last 4 entries again:

Compound	percent effect
CCNC1CCS(=O)(=O)C1 (stereo not drawn)	-8.443
COc1ccc(C2=NN=C(NC3CC3)SC2)cc1OC	6.802
CC(C)CC(=O)Nc1ccc2[nH]c(=O)c(=O)[nH]c2c1	1.674
CCOC(=O)N1CCN(C(=O)c2onc(C)c2Cl)CC1	36.56